Anti-infective test results gathered from many reports (values: NIAID ChemDB through PubChem).

Shared fields: cytotoxicity tests; measure: CC50

Neighbouring rows are from separate reports. CCn: concentration that lowers growth or viability of the cells by n%. An empty or dashed field is not shown. a–b is a range or a potency band.

SMILES	cells	method	result
NC(=O)c1ncn([C@@H]2O[C@H](CO)[C@@H](O)[C@H]2O)n1	LLC-MK2	-	200–1000 µg/mL
O=C1C=CC(=O)c2c(O)c(Cl)c(Cl)c(O)c21	Jurkat cells	luminescence	0.7 µM
Nc1nc(F)nc2c1ncn2/C=C1\CC1CO	H-1	-	>100 µM
O=C(NCc1ccccc1F)NC1N=C(c2ccccc2)c2ccccc2NC1=O	HEP-2	-	2 µM
C[C@@H]1[C@@H](NC(=O)/C=C/C=C/c2ccc3c(c2)OCO3)C[C@@H](C)C(C)(C)[C@H]1C	HEK293T	MTT	249.8 µM
COC(=O)[C@]1(C)CCC[C@]2(C)c3ccc(C(C)C)cc3C(=O)CC12	Jurkat cells	luminescence	>100 µM
Cc1c(C(=O)O)sc2c(C3CCCCC3)c(-c3ccccc3)n(CC(=O)N(C)C3CCN(C(C)C)C3)c12	Huh7	-	>3.25 µM
Nc1nc(N)c2ncn([C@H]3CC[C@@H](CO)O3)c2n1	GEMM-CFC	-	165 µM
OC[C@@H]1[C@@H](O)[C@H](O)[C@@H](O)CN1CCCCC1CCCCC1	HepG2 2.2.15	-	500 µM
C[S@@](=O)CCCCN=C=S	HONE-1	WST	15.31 µM
OC[C@H]1NC[C@H](O)[C@@H](O)[C@@H]1O	HepG2 2.2.15	-	>5000 µM
CN1CCN(C(=O)Cn2c(-c3ccccc3)c(C3CCCCC3)c3sc(C(=O)O)cc32)CC1	Huh7	-	>67.5 µM
COc1cc([C@@H]2c3cc4c(cc3[C@H](O)[C@H]3COC(=O)[C@@H]23)OCO4)cc(OC)c1OC	Jurkat cells	luminescence	0.2 µM
N[C@H]1CC2CC1c1ccccc12	G-2	-	>100 µg/mL
O=C1O[C@H]([C@@H](O)CO)C(O)=C1O	H9(HIV-1(IIIB))	-	>852 µM
O=C(/C=C/c1ccccc1)C1=C(O)C(=O)N(c2cccc(C(F)(F)F)c2)C1c1ccc([N+](=O)[O-])cc1	GHOST R5	-	>100 µM
c1cc(CN2CCCNCCNCCCNCC2)ccc1CN1CCCNCCNCCCNCC1	MT-4/HUT-78(IIIB+)	-	>250 µg/mL
COCn1c(-c2ccccc2)c(C2CCCCC2)c2sc(C(=O)O)c(CN(C)Cc3ccccc3)c21	Huh7	-	>27.5 µM
[N-]=[N+]=NCCCCCCCCCCCC(=O)OC[C@@H]1O[C@H](n2cc(F)c(N)nc2=O)CS1	MAGI	MTT	>200 µM
COc1nc(N)nc2c1ncn2C=C1CC1CO	H-1	-	>50 µM
O=S(=O)(c1cccc2cnccc12)N1CCCNCC1	U1	MTT	65 µM
O=C1C(=O)N(c2ccccc2)C(c2cccc([N+](=O)[O-])c2)/C1=C(\O)c1ccccc1	GHOST R5	-	58 µM
CCSCCCCCCCCCCCC(=O)OC[C@@H]1O[C@H](n2cc(F)c(N)nc2=O)CS1	MAGI	MTT	93.6 µM
O=C(O)c1cc2[nH]c(-c3ccccc3)c(C3CCCCC3)c2s1	Huh7	-	>280 µM
Nc1nc(Cl)nc2c1ncn2/C=C1/CC1CO	DAUDI	-	>50 µM
O=C(/C=C/c1ccccc1)C1=C(O)C(=O)N(c2ccccc2)C1c1cccc([N+](=O)[O-])c1	GHOST R5	-	>100 µM
CCc1nc2ccccn2c1C(=O)c1ccco1	U1	-	>100 µM
CN(C)CCN1C(=O)Cn2c(c(C3CCCCC3)c3sc(C(=O)O)cc32)-c2ccccc21	Huh7	-	>17.5 µM
Cc1cc(C#N)cc(C)c1Oc1nc(Nc2ccc(C#N)cc2)nc(N)c1Br	U-937	MTT / absorbance	55 µM
COc1cc(N)c(Cl)cc1C(=O)NC1N=C(c2ccccc2)c2ccccc2NC1=O	HEP-2	-	2.5 µM
Cc1ccccc1N1C(=O)C(O)=C(C(=O)/C=C/c2ccccc2)C1c1ccc(Br)cc1	GHOST R5	-	50 µM
CSc1ccccc1NC(=O)NC1N=C(c2ccccc2)c2ccccc2NC1=O	HEP-2	-	2 µM
CN(C)Cc1c(C(=O)O)sc2c(C3CCCCC3)c(-c3ccccc3)[nH]c12	Huh7	-	>85 µM
CCC(C)CCC[C@H](C)CCN1C[C@H](O)[C@@H](O)[C@H](O)[C@H]1CO	HepG2 2.2.15	-	250 µM
CC(C)N1CCC(N2CCn3c(c(C4CCCCC4)c4sc(C(=O)O)cc43)-c3ccccc3C2)C1	Huh7	-	>3.75 µM
CN(C)c1ccc(O)c2c1C[C@H]1C[C@H]3[C@H](N(C)C)C(=O)C(C(N)=O)=C(O)[C@@]3(O)C(=O)C1=C2O	Jurkat cells	luminescence	>100 µM
CCC(C)CCC[C@@H](C)CCN1C[C@H](O)[C@@H](O)[C@H](O)[C@H]1CO	HepG2 2.2.15	-	100 µM
COCn1c(-c2ccccc2)c(C2CCCCC2)c2sc(C(=O)O)cc21	Huh7	-	>147.5 µM
O=C(Nc1ccc(C(F)(F)F)cc1)NC1N=C(c2ccccc2)c2ccccc2NC1=O	HEP-2	-	4 µM
O=C(/C=C/C=C/c1ccc2c(c1)OCO2)NC12CC3CC(CC(C3)C1)C2	HEK293T	MTT	209.3 µM
O=c1ccc2cc3ccoc3cc2o1	RAW 264.7	-	100 µg/mL
CC(C)=CCC[C@]1(C)C=Cc2c(O)c3c(c(CC=C(C)C)c2O1)O[C@@]12C(=C[C@H]4CC1C(C)(C)O[C@]2(C/C=C(/C)C(N)=O)C4=O)C3=O	Jurkat cells	luminescence	1.3 µM
COC(=O)[C@H](C)NP(=O)(OC[C@H]1C/C1=C/n1cnc2c(N)nc(N)nc21)Oc1ccccc1	MEF	-	211 µM
COc1cccc(CC(=O)NC2N=C(c3ccccc3)c3ccccc3NC2=O)c1	VERO	-	3 µM
CN(C)C[C@@H]1C2CC(c3ccccc32)[C@H]1N	G-2	-	>100 µg/mL
CC(C)(C)NC(=O)N1CC=C(c2ccccc2)C1=O	U-937	MTT / absorbance	529 µM
COc1c2ccoc2cc2oc(=O)ccc12	RAW 264.7	-	100 µg/mL
Cc1cn([C@H]2C[C@H](N=[N+]=[N-])[C@@H](CO)O2)c(=O)[nH]c1=O	HuT-78	MTT	>10 µM
Cc1cc(N)c2ccccc2[n+]1CCCCCCCCCC[n+]1c(C)cc(N)c2ccccc21	Jurkat cells	luminescence	0.7 µM
C=C[C@@H](O)C#CC#C[C@@H](O)/C=C\CCCCCCC	RAW 264.7	-	5 µg/mL

Repeating the final 4 entries:

SMILES	cells	method	result
COc1c2ccoc2cc2oc(=O)ccc12	RAW 264.7	-	100 µg/mL
Cc1cn([C@H]2C[C@H](N=[N+]=[N-])[C@@H](CO)O2)c(=O)[nH]c1=O	HuT-78	MTT	>10 µM
Cc1cc(N)c2ccccc2[n+]1CCCCCCCCCC[n+]1c(C)cc(N)c2ccccc21	Jurkat cells	luminescence	0.7 µM
C=C[C@@H](O)C#CC#C[C@@H](O)/C=C\CCCCCCC	RAW 264.7	-	5 µg/mL